In PubChem BioAssay AID1259389 (Center for Chemical Genomics, University of Michigan, 2018):
The list shows a part of the results, in another mix than the full data. The source made the active and inactive calls. The calls were made as follows: active = z-score of 3 or more in at least 2 runs; inactive = the rest.

Assay: TAR RNA-Tat peptide displacers, HIV-1, primary screen, biochemical, FRET, FAM/TAMRA-labeled Tat (AID 1259389); also: test concentration not given here
Details: HIV-1 TAR RNA, Tat peptide displacement FRET; hits give high values

**Q.** With `O=C(COc1ccccc1)OC1CN2CCC1CC2` (stereo unspecified) as the compound, how does the z-score read?
**A.** Its z-score is inactive: -3.96.

**Q.** With `CN(C)CCOC(=O)C(O)(c1ccccc1)c1ccccc1` as the compound, how does the z-score read?
**A.** Its z-score is inactive: 0.91.

**Q.** For `O=C(O)C1(O)c2ccccc2-c2ccccc21`, which z-score is on record?
**A.** Its z-score is inactive: 1.11.

**Q.** For `O=C(COc1ccc(F)cc1)OC1CN2CCC1CC2` (stereo unspecified), which z-score is on record?
**A.** The z-score was inactive: -0.58.

**Q.** Which z-score does the source give for `COc1cc(-n2cnnn2)ccc1-n1cnnn1` here?
**A.** The z-score was inactive: 0.48.

**Q.** With `BrC1CSc2nc3ccccc3n2C1c1ccccc1` (stereo unspecified) as the compound, how does the z-score read?
**A.** Its z-score is inactive: 0.8.

**Q.** For `CCN(CCCl)Cc1ccccc1C`, which z-score is on record?
**A.** The z-score was inactive: 0.36.

**Q.** Which z-score does the source give for `C=CCN1CCN(CCOC(=O)C(O)(c2ccccc2)c2ccccc2)CC1` here?
**A.** The z-score was inactive: 1.46.

**Q.** Which z-score does the source give for `CN(C)CCOC(=O)C(O)(c1ccccc1)C1CCCC1` (stereo unspecified) here?
**A.** The z-score was inactive: -0.18.

**Q.** For `O=C(CCc1ccccc1)OC1CN2CCC1CC2` (stereo unspecified), which z-score is on record?
**A.** Its z-score is inactive: 1.1.

**Q.** With `OCCSCCO` as the compound, how does the z-score read?
**A.** The z-score was inactive: 0.59.
